A mixed list of measured activities; the numbers were collected in NIAID ChemDB.

Shared fields: whole-cell or culture tests; organism: Adenovirus; read-out: EC50

ECn: concentration that inhibits the pathogen or its effect by n%.

smiles | strain | cells | read by | value
CCCCS(=O)(=O)NC(Cc1ccc(NC(=O)c2cccc(NC3=NCCCCC3)c2)cc1)C(=O)O | TYPE 2 | HUMAN 293/beta5 |  | >100 µM
CCN(CC)c1cc(-c2ccc(O)cc2O)on1 | ATCC VR10 | VERO | plaque count | >121 µM
CC1(C(=O)O)CCC2(C)CCC3(C)C(=CC(=O)C4C5(C)CCC(OC(=O)C6CCCCC6C(=O)O)C(C)(C)C5CCC43C)C2C1 | TYPE 5 |  | virus yield | <30 µM
O=C(O)CC(NC(=O)CNC(=O)c1cccc(NC2=NCCCN2)c1)c1cc(Cl)cc(Cl)c1 | TYPE 2 | HUMAN 293/beta5 |  | >100 µM
COc1cc(O)c(/C=N/N=C(\N)NO)c(OC)c1.Cc1ccc(S(=O)(=O)O)cc1 | ATCC (TYPE 8) | A549 | plaque count | 100 µM
CSc1nsc(-c2ccncc2)c1C#N | TYPE 2 | HEP-2 | plaque count | >2.5 µM
CCOc1ccc(-c2cc(N(CC)CC)no2)c(O)c1 | ATCC VR10 | VERO | plaque count | >362 µM
CSc1nsc(-c2cccnc2)c1C#N | TYPE 2 | HEP-2 | plaque count | >20 µM
Nc1ncnc2c1ncn2C[C@H](O)CO | TYPES 1-8 | HEL | cytopathic effect | >125 µg/mL
NC(N)=Nc1cccc(C(=O)NCC(=O)NC(CC(=O)O)c2cccnc2)c1 | TYPE 2 | HeLa |  | <100 µM
Nc1nc2c(ncn2COCCO)c(=O)[nH]1 | TYPES 1-8 | HEL | cytopathic effect | >125 µg/mL
Nc1ccn([C@H]2CC[C@@H](CO)O2)c(=O)n1 | TYPE 37 | HEP-2 |  | 3.82 µg/mL
NC(N)=Nc1cccc(C(=O)NCC(=O)NC(CC(=O)O)c2cc(Cl)cc(Cl)c2)c1 | TYPE 2 | HUMAN 293/beta5 |  | 10–100 µM
CC(C)CS[C@@H]1C[C@H](n2cnc3c(N)ncnc32)[C@@H](O)[C@H]1O | TYPE 1 | A549 | cytopathic effect | >100 µg/mL
CSc1nsc(-c2ccccc2Cl)c1C#N | TYPE 2 | HEP-2 | plaque count | >5 µM
NC(=O)CCN(CCC(N)=O)S(=O)(=O)c1cccc(Nc2nc(Nc3cccc(S(=O)(=O)N(CCC(N)=O)CCC(N)=O)c3)nc(Nc3ccc(-c4ccc(Nc5nc(Nc6cccc(S(=O)(=O)N(CCC(N)=O)CCC(N)=O)c6)nc(Nc6cccc(S(=O)(=O)N(CCC(N)=O)CCC(N)=O)c6)n5)cc4S(=O)(=O)O)c(S(=O)(=O)O)c3)n2)c1 | TYPE 5 | HEP-2 | cytopathic effect | >375 µg/mL
N#Cc1c(Cl)nsc1Cl | TYPE 2 | HEP-2 | plaque count | >4 µM
CN[C@H]1C[C@@H](n2cnc3c(N)ncnc32)[C@H](O)[C@@H]1O | TYPE 1 | HFF |  | >100 µg/mL
O=c1[nH]c(=O)n([C@H]2C[C@H](O)[C@@H](CO)O2)cc1I | TYPE 3 | HeLa | plaque count | 27.25 µg/mL
NS(=O)c1ncnc2c1ncn2[C@H]1C[C@H](O)[C@@H](CO)O1 | TYPE 2 |  | cytopathic effect | >320 µM
CC(C)Oc1ccccc1NC(=O)Nc1ccc2cnccc2n1 |  |  | plaque count | >30 µg/mL
Cc1nsc(C)c1C#N | TYPE 2 | HEP-2 | plaque count | >1000 µM
COc1ccc(-c2cc(N3CCCC3)no2)c(O)c1 | ATCC VR10 | VERO | plaque count | >384 µM
Nc1nc2c(ncn2COC(CO)CO)c(=O)[nH]1 | TYPE 5 | HeLa | cytopathic effect | >400 µg/mL
NSc1ncnc2c1ncn2[C@@H]1O[C@H](CO)[C@@H](O)[C@@H]1O | TYPE 2 |  | cytopathic effect | >320 µM
C#CCOc1cc(OC)ccc1-c1cc(N(CC)CC)no1 | ATCC VR10 | VERO | plaque count | >40 µM
COc1cc(OC)c(OC)cc1/C=N/N=C(/N)NO.Cc1ccc(S(=O)(=O)O)cc1 | ATCC VR18 (TYPE 17) | VERO | plaque count | >50 µM
NSc1ncnc2c1ncn2[C@H]1C[C@H](O)[C@@H](CO)O1 | TYPE 2 |  | cytopathic effect | >320 µM
COc1cc(/C=N/N=C(/N)NO)cc(OC)c1OC.Cc1ccc(S(=O)(=O)O)cc1 | ATCC VR18 (TYPE 17) | VERO | plaque count | >50 µM
COc1ccc(-c2snc(SC)c2C#N)cc1 | TYPE 2 | HEP-2 | plaque count | >10 µM

Blank or dashed fields: not listed here. a–b is a range or a potency band. Rows are shuffled and stem from different studies.